Pooled drug test results. Numbers come from NIAID ChemDB, via PubChem.

MIC bound: limit read from a one-dose screen. ICn is the concentration giving n% inhibition. Blank or dashed fields: not listed here. Neighbouring rows are from separate reports. Percent inhibition refers to the dose given; in toxicity tests it is the harm to the cells. MIC50, MIC90 and the like: level of inhibition, or share of isolates inhibited.

structure	test	organism	strain or isolate	target	read by	read-out	tested at	result
CCCC(=O)NCCNC(=O)CCC	culture	Mycobacterium tuberculosis	H37Rv	-	-	MIC	-	>100 µg/mL
CS(=O)(=O)O.N/C(=N\O)c1ccc2oc(/C=C/c3cc4cc(/C(N)=N/O)ccc4o3)cc2c1	culture	Mycobacterium tuberculosis	H37Rv	-	BACTEC	MIC bound	-	>12.5 µg/mL
COc1ccc(-c2cncc(N3CCN(c4cccc(Cl)c4)CC3)n2)cc1OC	target	Cytomegalovirus	-	UL97 kinase	-	inhibition	1 µM	<50%
Cc1ccccc1N	culture	Mycobacterium tuberculosis	H37Rv	-	-	MIC	-	100 µg/mL
COc1cc2oc(=O)ccc2cc1CC=C(C)C	culture	Mycobacterium tuberculosis	H37Rv	-	BACTEC	inhibition	128 µg/mL	100%
Cc1c(N)c(C)c(F)c(Cc2c(N)c(C)c(N)c(C)c2F)c1N	culture	Mycobacterium tuberculosis	H37Rv	-	-	MIC	-	>100 µg/mL
Fc1ccc(N2CCCCC2)c(NC(=S)c2ccncc2)c1	host protein	-	-	CaMKII beta	kinase activity	inhibition	10 µM	40%
Cc1ccc(NC(=S)C#N)cc1Cl	culture	Mycobacterium tuberculosis	H37Rv	-	BACTEC	MIC bound	-	>12.5 µg/mL
O=[N+]([O-])c1ccc(SCCO)cc1	culture	Mycobacterium tuberculosis	H37Rv	-	-	MIC	-	>100 µg/mL
CCOC(=O)C1=NN(c2ccccc2)C(=O)C1N=Nc1ccc(NS(=O)(=O)c2nccs2)cc1	culture	Mycobacterium tuberculosis	H37Rv	-	BACTEC	MIC bound	-	>12.8 µg/mL
Fc1ccc(N2CCN(c3cncc(-c4ccc(C(F)(F)F)cc4)n3)CC2)c(F)c1	target	Cytomegalovirus	-	UL97 kinase	-	inhibition	1 µM	<50%
C=CCSC(=S)Nc1nc2ccc(C)cc2s1	culture	Mycobacterium tuberculosis	H37Rv	-	BACTEC	MIC bound	-	≤128 µg/mL
COc1ccc(N2CCN(c3cncc(-c4cccc(C#N)c4)n3)CC2)cc1OC	target	Cytomegalovirus	-	UL97 kinase	-	IC50	-	<100 µM
CC1(C)NN=C2C(=CC=C3NNC(C)(C)N32)n2cccc21.Cl.Cl	culture	Mycobacterium tuberculosis	H37Rv	-	BACTEC	inhibition	12.5 µg/mL	0%
CCC(O)C(CC(C)N(C)C)(c1ccccc1)c1ccccc1	culture	Mycobacterium tuberculosis	H37Rv	-	-	MIC	-	>100 µg/mL
COc1ccc(-c2cncc(N3CCN(c4ccc(C)cc4C)CC3)n2)cc1OC	target	Cytomegalovirus	-	UL97 kinase	-	IC50	-	<100 µM
COc1cccc(/C=C2/Sc3sc(C(C)=O)c(C)[n+]3C2=O)c1O.[Cl-]	culture	Mycobacterium tuberculosis	H37Rv	-	BACTEC	MIC bound	-	>12.5 µg/mL
COc1ccc(N2CCN(c3cncc(-c4ccc(C)cc4)n3)CC2)cc1OC	target	Cytomegalovirus	-	UL97 kinase	-	IC50	-	<10 µM
CC(=O)N[C@@H](C=O)[C@@H](O)[C@H](O)[C@H](O)C(=O)O	culture	Mycobacterium tuberculosis	H37Rv	-	BACTEC	inhibition	12.5 µg/mL	10%
CC(C)(C)c1ccc(-c2cncc(N3CCN(c4cccc(C(F)(F)F)c4)CC3)n2)cc1	target	Cytomegalovirus	-	UL97 kinase	-	inhibition	10 µM	>15%
COC(=O)c1cc(-c2ccc(OC)cc2)c2c(=O)n(-c3ccccc3)[nH]c2n1	culture	Mycobacterium tuberculosis	H37Rv	-	BACTEC	inhibition	12.5 µg/mL	9%
O=C(CC(Nc1ccccc1)c1ccccc1)c1ccccc1	culture	Mycobacterium tuberculosis	H37Rv	-	-	MIC	-	100 µg/mL
O=C1NC(CO)C(=O)NC1CO	culture	Mycobacterium tuberculosis	H37Rv	-	BACTEC	inhibition	12.5 µg/mL	32%
O=S(=O)(O)c1ccc2[nH]ncc2c1	culture	Mycobacterium tuberculosis	H37Rv	-	-	MIC	-	>100 µg/mL
CC(C)[C@H](NC(=O)CNC(=O)[C@@H]1CCCN1C(=O)[C@@H](NC(=O)OC(C)(C)C)C(C)C)C(=O)NCC(=O)OCc1ccccc1	culture	Mycobacterium tuberculosis	H37Rv	-	resazurin	MIC bound	-	>6.25 µg/mL
CCCCCC1(c2ccccc2)OC(=O)NC1=O	culture	Mycobacterium tuberculosis	H37Rv	-	-	MIC	-	100 µg/mL
C=CCc1ccc(O)c(OC)c1	culture	Candida tropicalis	3079	-	turbidity	MIC90	-	485 µg/mL
COc1cc(CO)ccc1O	culture	Mycobacterium tuberculosis	H37Rv	-	-	MIC	-	50 µg/mL
Fc1ccccc1N1CCN(c2cncc(-c3ccc(C(F)(F)F)cc3)n2)CC1	target	Cytomegalovirus	-	UL97 kinase	-	IC50	-	<10 µM
Cl.NCc1ccc(Cl)cc1	culture	Mycobacterium tuberculosis	H37Rv	-	-	MIC	-	>100 µg/mL
COc1ccc(-c2cncc(N3CCN(c4ccc(C)cc4)CC3)n2)cc1F	target	Cytomegalovirus	-	UL97 kinase	-	IC50	-	<100 µM
Oc1c(-c2ncco2)ccc2ccccc12	culture	Mycobacterium tuberculosis	H37Rv	-	-	MIC	-	>100 µg/mL
COc1ccc(N2CCN(c3cncc(-c4ccc(C(C)(C)C)cc4)n3)CC2)cc1OC	target	Cytomegalovirus	-	UL97 kinase	-	IC50	-	<100 µM

The last 5 rows once more:

structure | test | organism | strain or isolate | target | read by | read-out | tested at | result
Fc1ccccc1N1CCN(c2cncc(-c3ccc(C(F)(F)F)cc3)n2)CC1 | target | Cytomegalovirus | - | UL97 kinase | - | IC50 | - | <10 µM
Cl.NCc1ccc(Cl)cc1 | culture | Mycobacterium tuberculosis | H37Rv | - | - | MIC | - | >100 µg/mL
COc1ccc(-c2cncc(N3CCN(c4ccc(C)cc4)CC3)n2)cc1F | target | Cytomegalovirus | - | UL97 kinase | - | IC50 | - | <100 µM
Oc1c(-c2ncco2)ccc2ccccc12 | culture | Mycobacterium tuberculosis | H37Rv | - | - | MIC | - | >100 µg/mL
COc1ccc(N2CCN(c3cncc(-c4ccc(C(C)(C)C)cc4)n3)CC2)cc1OC | target | Cytomegalovirus | - | UL97 kinase | - | IC50 | - | <100 µM